Laboratory results as given in ChEMBL document CHEMBL4665854, “Backbone Cyclization Turns a Venom Peptide into a Stable and Equipotent Ligand at Both Muscle and Neuronal Nicotinic Receptors” (J Med Chem, 2020).

The chains behind the UniProt entries cited, without tags or fusion partners. Residues count along the entry.
UniProt P04757, 26-499 limits assumed: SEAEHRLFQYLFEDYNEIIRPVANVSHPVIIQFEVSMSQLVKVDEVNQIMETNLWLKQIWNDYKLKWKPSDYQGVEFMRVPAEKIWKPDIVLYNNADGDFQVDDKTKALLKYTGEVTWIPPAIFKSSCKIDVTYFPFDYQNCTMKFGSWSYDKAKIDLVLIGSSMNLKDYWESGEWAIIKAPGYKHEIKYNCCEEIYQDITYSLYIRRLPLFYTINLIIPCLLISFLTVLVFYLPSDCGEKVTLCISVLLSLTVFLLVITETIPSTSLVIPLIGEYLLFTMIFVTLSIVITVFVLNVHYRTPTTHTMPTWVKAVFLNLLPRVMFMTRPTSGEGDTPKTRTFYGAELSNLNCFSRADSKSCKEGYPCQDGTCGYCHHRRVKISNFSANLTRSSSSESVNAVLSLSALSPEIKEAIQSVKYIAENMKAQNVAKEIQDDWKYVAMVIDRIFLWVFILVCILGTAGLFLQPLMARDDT
UniProt P12390, 25-500 limits assumed: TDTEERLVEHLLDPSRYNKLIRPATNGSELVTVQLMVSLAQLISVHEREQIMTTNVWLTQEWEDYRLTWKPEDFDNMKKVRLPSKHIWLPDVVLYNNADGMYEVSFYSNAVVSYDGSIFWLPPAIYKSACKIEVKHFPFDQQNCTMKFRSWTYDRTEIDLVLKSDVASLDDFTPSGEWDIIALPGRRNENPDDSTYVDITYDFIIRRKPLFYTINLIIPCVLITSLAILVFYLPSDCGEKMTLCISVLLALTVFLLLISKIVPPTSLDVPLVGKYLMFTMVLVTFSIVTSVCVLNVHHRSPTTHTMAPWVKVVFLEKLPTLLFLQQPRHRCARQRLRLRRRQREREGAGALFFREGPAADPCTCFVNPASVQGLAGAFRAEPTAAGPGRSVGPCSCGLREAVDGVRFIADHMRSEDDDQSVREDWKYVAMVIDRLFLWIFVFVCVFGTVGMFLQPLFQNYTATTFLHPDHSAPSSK
UniProt P25109, 24-501 limits assumed: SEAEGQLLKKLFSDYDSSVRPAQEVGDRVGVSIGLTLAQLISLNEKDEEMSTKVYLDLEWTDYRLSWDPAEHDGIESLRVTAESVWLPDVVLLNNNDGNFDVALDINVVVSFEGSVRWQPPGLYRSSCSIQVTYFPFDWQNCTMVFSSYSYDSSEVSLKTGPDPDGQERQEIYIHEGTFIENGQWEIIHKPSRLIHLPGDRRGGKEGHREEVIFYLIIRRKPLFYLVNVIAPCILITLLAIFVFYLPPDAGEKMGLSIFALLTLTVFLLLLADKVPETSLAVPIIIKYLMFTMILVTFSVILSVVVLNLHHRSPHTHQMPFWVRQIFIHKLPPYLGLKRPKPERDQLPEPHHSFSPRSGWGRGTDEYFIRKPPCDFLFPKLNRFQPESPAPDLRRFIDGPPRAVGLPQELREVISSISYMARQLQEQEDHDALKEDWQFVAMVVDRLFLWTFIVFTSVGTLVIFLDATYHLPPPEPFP
UniProt P25108, 21-457 limits assumed: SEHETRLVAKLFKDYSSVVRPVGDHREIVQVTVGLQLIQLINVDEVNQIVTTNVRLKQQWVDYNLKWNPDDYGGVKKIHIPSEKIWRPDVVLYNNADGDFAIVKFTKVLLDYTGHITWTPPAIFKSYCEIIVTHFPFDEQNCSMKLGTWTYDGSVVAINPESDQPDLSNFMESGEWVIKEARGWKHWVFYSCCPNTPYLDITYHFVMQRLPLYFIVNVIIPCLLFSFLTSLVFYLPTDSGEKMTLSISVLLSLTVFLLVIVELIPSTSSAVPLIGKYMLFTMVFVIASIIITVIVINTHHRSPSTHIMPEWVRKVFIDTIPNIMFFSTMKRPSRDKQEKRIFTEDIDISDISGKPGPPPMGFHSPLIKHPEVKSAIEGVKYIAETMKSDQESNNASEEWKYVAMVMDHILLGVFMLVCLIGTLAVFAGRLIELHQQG
UniProt P25110, 22-517 limits assumed: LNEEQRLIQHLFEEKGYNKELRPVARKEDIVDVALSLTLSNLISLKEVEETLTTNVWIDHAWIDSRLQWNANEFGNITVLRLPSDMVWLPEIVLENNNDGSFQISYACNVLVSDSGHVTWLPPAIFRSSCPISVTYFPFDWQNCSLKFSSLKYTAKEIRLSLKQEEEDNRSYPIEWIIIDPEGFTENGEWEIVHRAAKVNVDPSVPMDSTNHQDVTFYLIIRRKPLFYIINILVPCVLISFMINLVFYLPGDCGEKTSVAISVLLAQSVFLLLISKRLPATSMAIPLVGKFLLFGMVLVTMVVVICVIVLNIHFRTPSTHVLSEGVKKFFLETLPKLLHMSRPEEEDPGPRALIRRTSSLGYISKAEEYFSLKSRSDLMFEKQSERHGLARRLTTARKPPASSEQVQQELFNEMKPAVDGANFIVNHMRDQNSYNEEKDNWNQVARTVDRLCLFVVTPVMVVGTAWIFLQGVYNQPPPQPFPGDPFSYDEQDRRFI
UniProt P18916, 23-519 limits assumed: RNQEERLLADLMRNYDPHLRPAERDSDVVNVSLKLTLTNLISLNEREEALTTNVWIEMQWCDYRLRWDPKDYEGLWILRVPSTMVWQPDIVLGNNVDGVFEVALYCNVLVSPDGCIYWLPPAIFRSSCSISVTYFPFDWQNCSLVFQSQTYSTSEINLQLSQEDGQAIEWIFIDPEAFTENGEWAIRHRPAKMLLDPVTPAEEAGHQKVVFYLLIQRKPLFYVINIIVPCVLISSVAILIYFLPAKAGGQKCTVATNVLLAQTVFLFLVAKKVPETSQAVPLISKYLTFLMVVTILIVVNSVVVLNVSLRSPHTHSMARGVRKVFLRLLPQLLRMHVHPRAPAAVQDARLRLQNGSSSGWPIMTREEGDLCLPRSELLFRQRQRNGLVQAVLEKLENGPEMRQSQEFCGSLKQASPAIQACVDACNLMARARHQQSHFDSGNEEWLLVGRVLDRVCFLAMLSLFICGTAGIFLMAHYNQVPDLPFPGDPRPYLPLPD

Assays:
[1] = molecular target: Neuronal acetylcholine receptor; alpha3/beta2 (Rattus norvegicus, UniProt P04757+P12390); experiment: Inhibition of rat alpha3beta2 expressed in Xenopus laevis oocytes assessed as inhibition of acetylcholine-induced channel current response at -70 mV holding potential by two-electrode voltage-clamp assay; type: cell-based, Oocyte
[2] = molecular target: CHRNA1/CHRNB1/CHRNG/CHRND (Rattus norvegicus, UniProt P25109+P25108+P25110+P18916); experiment: Inhibition of rat (alpha1)2betagammadelta expressed in Xenopus laevis oocytes assessed as inhibition of acetylcholine-induced channel current response at -70 mV holding potential by two-electrode voltage-clamp assay; type: cell-based, Oocyte

## C[C@@H]1NC(=O)[C@@H]2CCCN2C(=O)[C@H](Cc2c[nH]cn2)NC(=O)[C@@H]2CSSC[C@@H](C(N)=O)NC(=O)[C@H](CO)NC(=O)[C@H](Cc3ccccc3)NC(=O)[C@H](Cc3c[nH]cn3)NC(=O)[C@H](CCCCN)NC(=O)CNC(=O)[C@H](CSSC[C@H](NC(=O)[C@H](CCCNC(=N)N)NC(=O)CNC(=O)[C@@H](N)CC(N)=O)C(=O)N2)NC1=O
[1]
  IC50: 68.2 nM
[2]
  IC50: 6.62 nM
